Compound potency records, mixed from different reports. Data source: NIAID ChemDB in PubChem.

Shared fields: tests on isolated targets; species: Hepatitis C virus; protein: Nonstructural protein 3 protease

Rows are shuffled and stem from different studies.

| compound | dose | measure | method | strain or isolate | result |
|---|---|---|---|---|---|
| CCCCCCCCCCCC1=C(O)C(=O)C=C(O)C1=O |  | IC50 |  |  | 21 µM |
| O=C(OC1COC(=O)c2cc(O)c(O)c(O)c2-c2c(cc(O)c(O)c2O)C(=O)OC1C1OC(=O)c2cc(O)c(O)c(O)c2-c2c(O)c(O)c(O)c3c2C(=O)OC1C3O)c1cc(O)c(O)c(O)c1 |  | IC50 | fluorescence |  | 9.6 µM |
| CC[C@@H]1C(=O)N(S(C)(=O)=O)[C@H]2CCN(C(=O)[C@@H](NC(=O)OC(C)(C)C)C(C)C)[C@H]12 |  | IC50 |  |  | 30 µM |
| O=C(O)CSc1nc(-c2cccs2)c2c(n1)-c1ccccc1CC2 |  | IC50 | PCR | NS3-4A | 0.188 µM |
| CC(C)[C@H](NC(=O)OC(C)(C)C)C(=O)N1CC[C@H]2[C@H]1C(C1CCCC1)C(=O)N2C(=O)C1CC1 |  | IC50 |  |  | 2.5 µM |
| CCCCCCCCCCCCCC1=C(O)C(=O)C=C(OC)C1=O |  | IC50 |  |  | 46 µM |
| O=C(OC[C@H]1O[C@@H](OC(=O)c2cc(O)c(O)c(O)c2)[C@H](OC(=O)c2cc(O)c(O)c(O)c2)[C@@H](OC(=O)c2cc(O)c(O)c(O)c2)[C@@H]1OC(=O)c1cc(O)c(O)c(O)c1)c1cc(O)c(O)c(O)c1 |  | IC50 | fluorescence |  | 10.6 µM |
| CCC[C@H](NC(=O)[C@@H]1C2CCCC2CN1C(=O)[C@@H](NC(=O)[C@@H](NC(=O)c1cnccn1)C1CCCCC1)C(C)(C)C)C(=O)C(=O)N[C@@H](C)c1ccncc1 |  | Ki |  |  | 0.053 µM |
| O=C(O[C@@H]1O[C@@H]2COC(=O)c3cc(O)c(O)c(O)c3-c3c(cc(O)c(O)c3O)C(=O)O[C@H]([C@H]1O)[C@@H]2O)c1cc(O)c(O)c(O)c1 |  | IC50 | fluorescence |  | 31.5 µM |
| CC[C@@H]1C(=O)N(C(=O)C2CC2)[C@H]2CCN(C(=O)[C@@H](NC(=O)OC(C)(C)C)C(C)C)[C@H]12 |  | IC50 |  |  | 8.9 µM |
| COc1ccc2c(O[C@@H]3C[C@H]4C(=O)C[C@]5(P(=O)(O)Cc6c(F)cccc6F)C[C@H]5CCCCCCC[C@H](CC(=O)OC5CCCC5)C(=O)N4C3)cc(-c3csc(NC(C)C)n3)nc2c1Cl |  | Ki | fluorescence | Con1 (gt 1b) | 0.000089 µM |
| CCC[C@H](NC(=O)[C@@H]1[C@H]2CCC[C@H]2CN1C(=O)[C@@H](NC(=O)[C@@H](NC(=O)c1cnccn1)C1CCCC1)C(C)(C)C)C(=O)C(=O)NC1CC1 |  | Ki |  |  | 0.04 µM |
| CC(C)(C)[C@H](NC(=O)[C@@H](NC(=O)c1cnccn1)C1CCCCC1)C(=O)N1CC2CCCC2[C@H]1C(=O)NC(CC(F)F)C(=O)C(=O)NC1CC1 |  | Ki |  |  | 0.025 µM |
| CCCC(NC(=O)[C@@H]1C2CCC(C2)N1C(=O)[C@@H](NC(=O)OC(C)(C)C)C1CCCCC1)C(=O)C(=O)NCC(=O)N[C@H](C(=O)N(C)C)c1ccccc1 |  | Ki |  |  | 0.09 µM |
| O=C(CSc1nc(-c2cccs2)c2c(n1)-c1ccccc1CC2)NN1C(=O)c2ccccc2C1=O |  | IC90 | PCR | NS3-4A | 0.301 µM |
| CC(C)[C@H](NC(=O)OC(C)(C)C)C(=O)N1CC[C@H]2[C@H]1C1(CCCC1)C(=O)N2S(C)(=O)=O |  | IC50 |  |  | 31 µM |
| CC(C)[C@H](NC(=O)OC(C)(C)C)C(=O)N1CC[C@H]2[C@H]1C(C)(C)C(=O)N2C(=O)C1CC1 |  | IC50 |  |  | 3 µM |
| CCC[C@H](NC(=O)[C@@H]1[C@H]2CCC[C@H]2CN1C(=O)[C@@H](NC(=O)[C@@H](NC(=O)c1cnccn1)C1CCCCC1)C(C)(C)C)C(=O)C(=O)N[C@@H](C)Cc1ccccc1 |  | Ki |  |  | 0.046 µM |
| O=c1c(O[C@@H]2O[C@H](CO)[C@@H](O)[C@H](O)[C@H]2O)c(-c2ccc(O)c(O)c2)oc2cc(O)cc(O)c12 | 100 µM | inhibition |  |  | 53.8% |
| CCCCCCCCCCCC1=C(O)C(=O)C=C(O)C1=O |  | IC50 | fluorescence |  | 179.9 µM |
| CCC[C@H](NC(=O)[C@@H]1C2CCCC2CN1C(=O)[C@@H](NC(=O)[C@@H](NC(=O)c1cnccn1)C1CCCCC1)C(C)(C)C)C(=O)C(=O)N[C@@H](C)C(C)C |  | Ki |  |  | 0.312 µM |
| C[C@@H]1C(=O)N(C(=O)C2CC2)[C@H]2CCN(C(=O)[C@@H]3CCCN3S(=O)(=O)c3cccc4c(N(C)C)cccc34)[C@H]12 |  | IC50 |  |  | 97 µM |
| CCCC(NC(=O)[C@@H]1[C@H]2CCC[C@H]2CN1C(=O)[C@@H](NC(=O)[C@@H](NC(=O)c1cnccn1)C(C)(C)C)C(C)(C)C)C(=O)C(=O)NC1CC1 |  | Ki |  |  | 0.59 µM |
| CC[C@@H]1C(=O)N(S(C)(=O)=O)[C@H]2CCN(C(=O)[C@@H](NC(=O)OC(C)(C)C)C(C)C)[C@H]12 |  | IC50 |  |  | 30 µM |
| CC(C)[C@H](NC(=O)OC(C)(C)C)C(=O)N1CC[C@H]2[C@H]1C(C1CCC1)C(=O)N2C(=O)C1CC1 |  | IC50 |  |  | 0.51 µM |
| CC(=O)N1C(=S)NC2=C(CCc3ccccc32)C1c1cccs1 |  | IC90 | PCR | NS3-4A | 1.89 µM |

Repeating the final 3 entries:

compound,dose,measure,method,strain or isolate,result
CC[C@@H]1C(=O)N(S(C)(=O)=O)[C@H]2CCN(C(=O)[C@@H](NC(=O)OC(C)(C)C)C(C)C)[C@H]12,,IC50,,,30 µM
CC(C)[C@H](NC(=O)OC(C)(C)C)C(=O)N1CC[C@H]2[C@H]1C(C1CCC1)C(=O)N2C(=O)C1CC1,,IC50,,,0.51 µM
CC(=O)N1C(=S)NC2=C(CCc3ccccc32)C1c1cccs1,,IC90,PCR,NS3-4A,1.89 µM

ICn: concentration for n% inhibition. Blank or dashed fields: not listed here. Percent inhibition refers to the dose given; in toxicity tests it is the harm to the cells.